A mixed list of measured activities; the numbers were collected in NIAID ChemDB.

Common to all: growth or infection tests; organism: HIV-1; cells: MT-4; read-out: inhibition

Blank or dashed fields: not listed here.

SMILES | strain | changes | method | conditions | dose | value
Cc1cn([C@H]2C=CC[C@@H](CO)O2)c(=O)[nH]c1=O | IIIB | - | ELISA | - | 100 µM | 0%
NC1=NS(=O)(=O)N([C@@H]2CS[C@@H](CO)O2)C=C1 | RF | - | - | - | 100 µg/mL | 0%
O=C1NC(=S)N[C@@H]1Cc1ccc(O)cc1 | - | - | cytopathic effect / XTT | - | 10 µg/mL | 0%
Cc1ccc(C(=O)OCC2OC(N3C(=O)NC(=O)/C3=C\c3ccc4ccc5cccc6ccc3c4c56)CC2OC(=O)c2ccc(C)cc2)cc1 | IIIB | - | ELISA / antigen | - | 100 µM | <30%
CC[C@@H]1C=CC[C@@H](n2cnc3c(N)ncnc32)O1 | IIIB | - | ELISA | - | 100 µM | 0%
CC1=C[C@H](n2cc(C)c(=O)[nH]c2=O)O[C@@H]1CO | - | - | cytopathic effect | - | 500 µg/mL | 0%
CN(C)c1ccc(Nc2c3ccc(NC(=O)CCN4CCCC4)cc3nc3cc(NC(=O)CCN4CCCC4)ccc23)cc1 | IIIB | - | GFP / single cycle | - | 8.4 µM | 58%
Cc1cn([C@H]2C=C[C@@H](CO)O2)c(=O)[nH]c1=O | - | - | p24 | - | 0.5 µg/mL | 100%
O=C(NCCc1ccccc1)Nc1nc2ccc(Cl)cc2s1 | - | - | cytopathic effect / XTT | - | 10 µg/mL | 63–69%
Cl.O=C(O)CCC1=C(CC(=O)O)c2cc3nc(cc4[nH]c(cc5[nH]c(cc1n2)c(CC(=O)O)c5CCC(=O)O)c(CC(=O)O)c4CCC(=O)O)C(CC(=O)O)=C3CC(=O)O | LAV | - | cytopathic effect | - | 10 µg/mL | 97%
O=c1[nH]cnc2c1ncn2[C@@H]1O[C@H](CO)[C@H]1COS(=O)(=O)O | - | - | antigen | - | 3 µg/mL | 40%
CC1(C)[C@@H](O[C@H]2O[C@H](C(=O)O)[C@@H](O)[C@H](O)[C@H]2O[C@@H]2O[C@H](C(=O)O)[C@@H](O)[C@H](O)[C@H]2O)CC[C@]2(C)[C@H]3C(=O)C=C4[C@@H]5C[C@@](C)(CO)CC[C@]5(C)CC[C@@]4(C)[C@]3(C)CC[C@@H]12 | IIIB | - | cytopathic effect / MTT | - | 160 µM | 57.4%
CC1=C(CCC(=O)O)c2cc3nc(cc4[nH]c(cc5[nH]c(cc1n2)c(C)c5CCC(=O)O)c(CCC(=O)O)c4C)C(CCC(=O)O)=C3C | LAV | - | cytopathic effect | - | 10 µg/mL | 96.5%
CC1=CN([C@H]2CS[C@@H](CO)O2)S(=O)(=O)NC1=O | RF | - | - | - | 100 µg/mL | 0%
Nc1ncnc2c1ncn2[C@@H]1O[C@H](CO)[C@H]1N | - | - | antigen | - | 10 µg/mL | 94%
O=C(NCCc1ccccc1)Nc1ncccn1 | - | - | cytopathic effect / XTT | - | 100 µg/mL | 22%
NCCC[C@@H](N)CC(=O)NCN | IIIB | - | antigen | - | 1 µg/mL | 80%
Cc1cn([C@H]2C=C[C@@H](COC(=O)[C@@H](N)Cc3c[nH]c4ccccc34)O2)c(=O)[nH]c1=O | - | - | p24 | - | 0.1 µg/mL | 100%
CC1=C(CCC(=O)O)c2cc3nc(cc4[nH]c(cc5[nH]c(cc1n2)c(C)c5C(C)O)c(C)c4C(C)O)C(C)=C3CCC(=O)O | LAV | - | cytopathic effect | - | 10 µg/mL | 99%
Nc1ncnc2c1ncn2[C@H]1C[C@@H](CO)O1 | - | - | antigen | - | 10 µg/mL | >99.9%
NC1=NS(=O)(=O)N(Cc2ccccc2)c2c1ncn2[C@H]1CS[C@@H](CO)O1 | RF | - | - | - | 100 µg/mL | 0%
Nc1ccn([C@H]2CC[C@@H](CO)O2)c(=O)n1 | IIIB | - | antigen | - | 2 µM | 97%
Cc1cn([C@@H]2C=CC[C@@H](CO)O2)c(=O)[nH]c1=O | IIIB | - | ELISA | - | 100 µM | 0%
C[C@H]1O[C@H](O[C@@]23C(=O)[C@@H](O)[C@](C)(O)C[C@]2(O)C=CC2=C3C(=O)c3cccc(O)c3C2=O)CC[C@H]1O | LAV | - | plaque count | - | 1 µg/mL | 60%
CSc1cc(N)nc(S[C@@H](C)c2cc3ccoc3cn2)n1 | MF DLV-resistant (RT P236L) | RT-P236L | p24 | - | 0.02 µM | 90%
CC1=CN([C@@H]2CS[C@@H](CO)O2)S(=O)(=O)NC1=O | RF | - | - | - | 100 µg/mL | 0%
O=c1[nH]cnc2c1ncn2[C@H]1C[C@@H](CO)O1 | - | - | antigen | - | 10 µg/mL | >99.9%
CCc1c(Cc2c(Cl)cccc2Cl)nc(SC/C=C/c2ccc(C#N)cc2)[nH]c1=O | NNRTI-resistant | RT-Y181C | cytopathic effect / MTT | - | 54.82 µM | 41%
CCc1c(Sc2ccccc2)n(COCc2ccccc2)c(=O)[nH]c1=O | A012D | - | p24 | - | 0.015 µM | 90%
CC(=O)N[C@H]1CSSC[C@@H](C(=O)N[C@@H](Cc2ccc(O)cc2)C(=O)O)NC(=O)[C@H](CCCCN)NC(=O)[C@H](CC(N)=O)NC1=O | NL4-3 | - | RT activity | 6 d | 2.5 µM | 31%
C=Cc1c(C)c2cc3nc(c(CC(=O)O)c4nc(cc5[nH]c(cc1[nH]2)c(C)c5CC)C(C)=C4C(=O)O)C(CCC(=O)O)=C3C | LAV | - | cytopathic effect | - | 10 µg/mL | 97%
CC1(C)[C@@H](O[C@H]2O[C@H](C(=O)O)[C@@H](O)[C@H](O)[C@H]2O[C@@H]2O[C@H](C(=O)O)[C@@H](O)[C@H](O)[C@H]2O)CC[C@]2(C)[C@H]3C=CC4=C5C[C@@](C)(C(=O)O)CC[C@]5(C)CC[C@@]4(C)[C@]3(C)CC[C@@H]12 | IIIB | - | cytopathic effect / MTT | - | 160 µM | 92.8%
CCCCN1C(=O)[C@@H](Cc2ccccc2)NC1=S | - | - | cytopathic effect / XTT | - | 10 µg/mL | 20–52%
Cc1cc(C)c(S(=O)(=O)OCC2OC3OC4C(CO)OC(OC5C(CO)OC(OC6C(CO)OC(OC7C(CO)OC(OC8C(CO)OC(OC9C(C[n+]%10ccccc%10)OC(OC2C(O)C3O)C(O)C9O)C(O)C8O)C(O)C7O)C(O)C6O)C(O)C5O)C(O)C4O)c(C)c1 | LAV-1 | - | cytopathic effect / trypan blue | - | 1.95 µg/mL | 100%
CN1C(=O)[C@@H](Cc2ccccc2)NC1=S | - | - | RT activity | - | 10 µg/mL | 7%
COc1cc(-c2cc(-c3ccc4ccc5cccc6ccc3c4c56)c(C#N)c(=O)[nH]2)cc(OC)c1OC | IIIB | - | ELISA / antigen | - | 100 µM | <30%
O=C1c2c(O)c(O)cc(=O)n2CCN1Cc1ccc(Cl)cc1 | - | - | p24 / ELISA | - | 1 µM | ≥95%
NC1=NS(=O)(=O)N(Cc2ccccc2)c2c1ncn2[C@@H]1CS[C@@H](CO)O1 | RF | - | - | - | 100 µg/mL | 0%
C/C(=C(/CCO)SS/C(CCO)=C(\C)N(C=O)Cc1cnc(C)nc1N)N(C=O)Cc1cnc(C)nc1N | LAV-1 | - | - | - | 250 µM | 98%
O=c1oc2cc(O)c(O)cc2c(O)c1-c1coc2c1c(=O)oc1cc(O)c(O)cc12 | IIIB | - | MTT | - | 0.1 µM | 0%
O=C(NCCc1ccccc1)Nc1nc2c(Cl)cccc2s1 | - | - | RT activity | - | 10 µg/mL | 8%
O=C1c2c(O)c(O)cc(=O)n2CCN1Cc1cccc(Cl)c1 | - | - | p24 / ELISA | - | 0.5 µM | ≥95%
Cc1cn([C@H]2C[C@H](CO)[C@@H](CO)S2)c(=O)[nH]c1=O | - | - | - | - | 100 µg/mL | 0%
O=c1ccn([C@H]2CC=C[C@@H](CO)O2)c(=O)[nH]1 | IIIB | - | ELISA | - | 100 µM | 0%
CCC1=C(C)C2=NC1=CC1=C(C)C3=C(O)CC(=C4N=C(C=c5[nH]c(c(CC)c5C)=C2)C(C)=C4CCC(=O)O)C3=N1 | LAV | - | cytopathic effect | - | 10 µg/mL | 97%
CC(=O)N[C@@H](Cc1ccc(O)cc1)C(=O)N[C@H]1CSSC[C@@H](C(=O)O)NC(=O)[C@H](CCCCN)NC(=O)[C@H](CCCCN)NC1=O | NL4-3 | - | RT activity | 6 d | 2.5 µM | 28%
O=C(NCc1ccc(F)cc1)c1ncc2cccnc2c1O | - | - | p24 | 50% human serum | 6 µM | >95%
Nc1ccn([C@H]2C[C@H](CO)[C@@H](CO)S2)c(=O)n1 | - | - | - | - | 100 µg/mL | 0%
CSCSC1=N/C(=C\c2ccc3ccc4cccc5ccc2c3c45)C(=O)N1 | IIIB | - | ELISA / antigen | - | 100 µM | <30%
CC1=C(CCC(=O)O)c2cc3nc(cc4[nH]c(cc4C)cc4[nH]c(cc1n2)cc4C)C(C)=C3CCC(=O)O | LAV | - | cytopathic effect | - | 10 µg/mL | 97%

A second listing of 5 rows from above:

SMILES	strain	changes	method	conditions	dose	value
O=C1NC(=S)N[C@@H]1Cc1ccc(O)cc1	-	-	cytopathic effect / XTT	-	10 µg/mL	0%
Nc1ccn([C@H]2C[C@H](CO)[C@@H](CO)S2)c(=O)n1	-	-	-	-	100 µg/mL	0%
O=c1[nH]cnc2c1ncn2[C@@H]1O[C@H](CO)[C@H]1COS(=O)(=O)O	-	-	antigen	-	3 µg/mL	40%
C[C@H]1O[C@H](O[C@@]23C(=O)[C@@H](O)[C@](C)(O)C[C@]2(O)C=CC2=C3C(=O)c3cccc(O)c3C2=O)CC[C@H]1O	LAV	-	plaque count	-	1 µg/mL	60%
CCc1c(Cc2c(Cl)cccc2Cl)nc(SC/C=C/c2ccc(C#N)cc2)[nH]c1=O	NNRTI-resistant	RT-Y181C	cytopathic effect / MTT	-	54.82 µM	41%

Inhibition is in % at the dose shown (toxicity tests: loss of growth or viability). Neighbouring rows are from separate reports. Two numbers with a dash give a range or band.